These are literature values, as cited in US8431615B2, “Dose forms” (priority 2004, dated 2013).

For this series, the system named is A156V/T NS3 protease. To be noted: enzyme Ki or 2-day replicon IC50; cited from earlier work.

Regarding `CCC[C@H](NC(=O)[C@@H]1[C@H]2CCC[C@H]2CN1C(=O)[C@@H](NC(=O)[C@@H](NC(=O)c1cnccn1)C1CCCCC1)C(C)(C)C)C(=O)C(=O)NC1CC1` [VX-950], the “resistance to VX-950 conferred by A156V/T mutations compared to the wild type protease” value is “Increased resistance”.
